Results taken from the supplement of paper PMC9931576.
Human monoclonal antibodies against the spike receptor-binding domain (heavy:light variable regions). IC50 against pseudoviruses bearing the spike of naturally observed variants; lower = stronger; >10 µg/ml means not reached at the top dose. No active / inactive call. The stated detection limit is 0.0005 µg/ml; values near or below 0.001 µg/ml lie at the floor of the assay.

B1: BD56-182 (protein)
chain 1: QVQLQESGPGLVKPSETLSLTCTVSGGSINYYYWSWIRQPPGKGLEWIGYIFYTGTTNYNPSLKSRVTISVDTSKNQFSLRLSSVTAADTAVYYCARQREEYYFDISGYHLDCWGQGTLVTVSS
chain 2: DIQMTQSPSSLSASVGDRVTITCQASQDIRNYLNWYQQKPGKAPKLLIYDASNLETGVPSRFSGSRSGTDFTFTVSSLQPEDIATYYCQQYDNLLGITFGQGTRLEIK
B2: BD56-186 (protein)
chain 1: EVQLVESGGGLVKPRGSLRLSCAASGFTFSSAWMNWVRQAPGKGLEWVGRIKSEIDGGTTDYAAPVKGRFTISRDDSKNTLYLQMNSLKTEDTAVYYCTVSDVIRFYDYGMDVWGQGTTVTVSS
chain 2: DIQMTQSPSTLSASVGDRVTITCRASQSISRWLAWYQQKPGKAPKLLIYKASSLQSGVPSRFSGSGSGTEFTLTISSLQPDDFATYYCQQYNSYLYTFGQGTKLEIK
B3: BD56-190 (protein)
chain 1: QVQLQESGPGLVKPSQTLSLICTVSGGSISSSGYYWSWIRQHPGKGLEWIGYIYYSGTTYYHPSLKSRVFMSLDTSKNQFSLKLSSVTAADTAVYYCAGNDGDPDYFDYWGLGTLVTVSS
chain 2: EIVLIQSPATLSLSPGERATLSCRASQSVNSYLAWYQQKPGQAPSLLIYDASYRATGIPARFSGSGSGTDFTLTISSLEPEDFAVYYCQQRFSWPPTFGQGTRLEIK
B4: BD56-193 (protein)
chain 1: EVQLVQSGAEVKKPGESLRISCKGSGYMFTRHWIGWVRQMPGKGLEWMGIIYPGDSDTRYSPSFQGHVTISVDKSTSTAYLQWSSLKASDTAMYYCARHETIFGVVTPIDYWGQGTLVTVSS
chain 2: QPVLTQPPSSSASPGESARLTCTLPSDISVGSYNIYWYQQKPGSPPRYLQSYLDSDKGQGSGVPSRFSVSKDASANTGILLISGLQSEDEADYYCMTWPSHSYVVFGGGTKLTVL
B5: BD56-203 (protein)
chain 1: QVQLVQSGGEVKKPGASVRVSCKASGYTFSGYGISWVRQAPGQGLEWMGWISAQNGNTNYAQKLQGRVTMTTDTSTNTAYMELRSLKSDDTAVYFCARVLDSGFLWFEDSYFFDHWGQGTRVTVSS
chain 2: EIVLTQSPGTLSLSPGERATLSCRASQSISSSYLAWFQQKPGQAPRLLIYGAFSRATGVPDRFSGSGSGTDFTLTISRLEPGDFAVYYCQQYGSSPWTFGQGTKVEIK
B6: BD56-212 (protein)
chain 1: EVQLVQSGAEVKKPGESLKISCKGSGYNFPNFWVGWVRQMPGKGLEWMGIIYPDDSDTRYNPSFQGHVTISADKSISTAYLQWSSLKASDTAMYYCARQGLPYCDGDCYNNWFDPWGQGTLVTVSS
chain 2: QSVLTQPPSVSGAPGQRVTISCTGGSSNIGADYDVQWYQQLPGTAPKLLIYRNNNRPSGVPDRFSGSKSGTSASLAISGLQAEDEADYYCQSYDRSLSGDVVFGGGTKLTVL

Biological target: SARS-CoV-2 Omicron BA.1 spike pseudovirus
Assay: pseudovirus neutralization IC50; higher = weaker neutralization
Method: (§1)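 Single-round VSV luciferase pseudovirus mixed with antibody dilutions for 1 h and put on Huh-7 cells for about a day; IC50 from the dose curve.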

Row | Binder | pseudovirus neutralization IC50 [µg/mL]
1 | B1 | > 10
2 | B2 | 3.04
3 | B3 | > 10
4 | B4 | > 10
5 | B5 | > 10
6 | B6 | 5.45

Biological target: SARS-CoV-2 Omicron BA.2 spike pseudovirus
Assay: as above
Method: as §1

Row | Binder | pseudovirus neutralization IC50 [µg/mL]
7 | B1 | > 10
8 | B2 | 3.04
9 | B3 | > 10
10 | B4 | > 10
11 | B5 | > 10
12 | B6 | 3.78

Biological target: SARS-CoV-2 Omicron BA.2.75 spike pseudovirus
Assay: as above
Method: as §1

Row | Binder | pseudovirus neutralization IC50 [µg/mL]
13 | B1 | > 10
14 | B2 | 3.69
15 | B3 | > 10
16 | B4 | > 10
17 | B5 | > 10
18 | B6 | 2.52

Biological target: SARS-CoV-2 Omicron BA.5 spike pseudovirus
Assay: as above
Method: as §1

Row | Binder | pseudovirus neutralization IC50 [µg/mL]
19 | B1 | > 10
20 | B2 | 3.55
21 | B3 | > 10
22 | B4 | > 10
23 | B5 | > 10
24 | B6 | 3.89

Biological target: SARS-CoV-2 Omicron BQ.1.1 spike pseudovirus
Assay: as above
Method: as §1

Row | Binder | pseudovirus neutralization IC50 [µg/mL]
25 | B1 | > 10
26 | B2 | > 10
27 | B3 | > 10
28 | B4 | > 10
29 | B5 | > 10
30 | B6 | 2.77

Biological target: SARS-CoV-2 Omicron XBB spike pseudovirus
Assay: as above
Method: as §1

Row | Binder | pseudovirus neutralization IC50 [µg/mL]
31 | B1 | > 10
32 | B2 | > 10
33 | B3 | > 10
34 | B4 | > 10
35 | B5 | > 10
36 | B6 | 3.25

Biological target: SARS-CoV-2 early D614G spike pseudovirus
Assay: as above
Method: as §1

Row | Binder | pseudovirus neutralization IC50 [µg/mL]
37 | B1 | > 10
38 | B2 | > 10
39 | B3 | > 10
40 | B4 | > 10
41 | B5 | > 10
42 | B6 | 1.65
